The match of structure and compound is tentative.

Chains of the proteins cited; added tags and fusions are not shown. Residues count along the entry.
UniProt P27958, 1027-1208 limits assumed: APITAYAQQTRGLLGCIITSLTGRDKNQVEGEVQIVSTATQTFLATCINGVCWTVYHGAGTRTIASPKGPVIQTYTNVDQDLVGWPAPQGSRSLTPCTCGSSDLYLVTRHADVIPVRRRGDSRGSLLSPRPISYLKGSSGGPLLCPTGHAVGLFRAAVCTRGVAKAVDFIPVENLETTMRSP

The term Ki denotes the equilibrium dissociation constant of an inhibitor or competing ligand from its target. A high value points to weaker binding.

For the assay, the target named is HCV NS3 protease (Hepatitis C virus genotype 1a, UniProt P27958). In words: Enzyme inhibition of HCV NS3 serine protease (cleavage of peptide substrate / EDVV AbuC-p-nitroanilide, with or without NS4A). The format is biochemical. To be noted: Enzyme inhibition data; Ki from rate vs [inhibitor] plots, Morrison tight binding competitive inhibition fit; 30 C, pH 7.8. The method, then: Cleavage reactions were quenched by the addition of an equal volume of a mixture of 10% TFA:acetonitrile (1:1) and activity was assessed on a reversed phase HPLC column (Rainin C18 Microsorb-MV, […], 4.6×250 mm; 0-50% acetonitrile, 0.1% TFA@ 3.33% min) using a Hewlett Packard 1050 instrument with auto-injection and diode array detection at 210 nm and 280 nm (where appropriate). Peptide elution fragments were collected and identified by mass spectrometry and N-terminal sequence analysis. Fragment identity and concentration was further verified by authentic, synthesized products. Initial rates of cleavage were determined at <20% substrate conversion and catalytic parameters were determined assuming Michaelis-Menten kinetics using the MultiFit program (Day Computing, Cambridge, Mass.).
Spectrophotometric assays were run in a 96-well microtiter plate at 30 C, using a SpectraMax 250 reader (Molecular Devices, Sunnyvale, Calif.) with kinetic capability. Cleavage of EDVV AbuC-p-nitroanilide (5A-pNA) substrate was performed with or without […] in the same buffer used for HPLC assays at 30 C, and pNA release was monitored at 405 nm. […]
Kinetic constants for the rapid equilibrium ordered bisubstrate reaction were determined from rate vs [4A], [EDVV AbuC-pNA] data by non-linear least squares fitting to equation 1 [Morrison, J. F. Biochim. […]

As to `CC[C@@H](C=O)NC(=O)[C@@H]1C[C@@H](NC(=O)c2ccc3ccccc3c2)CN1C(=O)C(NC(=O)C(NC(=O)c1cnccn1)C(C)C)C(C)C` (stereo partly shown), the inhibition constant (Ki) lay in the range of 1 to 100 µM.

The record behind these values is patent US7388017B2, “Inhibitors of serine proteases, particularly hepatitis C virus NS3 protease” (Vertex Pharmaceuticals Incorporated, priority 1996, dated 2008).
